# Percent effect of library compounds

Values are the deposited “Percent Effect”, in %. The record does not define 0% and 100%; most values in the screen are far below 50% and negative numbers occur (in some assays of this library far below -100). This is part of a subset picked to be rich in strong results.

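Growth of Mycobacterium tuberculosis over 4 days (cholesterol / DPPC medium with tyloxapol); the read-out is not stated. Compounds at 500 µM. Higher reads as more growth inhibition (inferred: compounds with an IC50 in retests scored well above the rest). About 18,000 compounds were tested under these conditions; 5% (about 900) showed 50% or more at least once.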

With Cc1c[nH]c(C(=O)NC(c2nccn2C)C2CC2)n1 (stereo not drawn) the screen gave 7.004%.
With O=C(CN1CCCCCC1=O)OCC=CCl the screen gave 29.28%.
With COCCSCC(=O)Nc1ccn(C)n1 the screen gave -4.326%.
With CC1c2ccsc2CCN1C(=O)c1ccncc1 (stereo not drawn) the screen gave 14%.
With N[C@@H]1C[C@@H](N2CCOCC2)C12CCC2 the screen gave 1.654%.
With CCN(CC)C(=O)C1Cn2cccc2C(=O)N1C (stereo not drawn) the screen gave 8.285%.
With O=S(=O)(CCN1CC[C@@H](O)C1)c1cccc(Br)c1 the screen gave 87.19%.
With CC(N)c1cc[nH]c(=O)c1 (stereo not drawn) the screen gave -10.07%.
With CCn1cnnc1CNc1ncccc1F the screen gave 9.125%.
With O=C1c2ccc(F)cc2C(=O)N1c1ccccc1F the screen gave -3.658%.
With NCc1cc2cccnc2cc1Br the screen gave -4.415%.
With COCCCNC(=O)C1=Cc2ccccc2OC1 the screen gave 81%.
With CNC(=O)C1CCN(Cc2c(F)cccc2Cl)C1 (stereo not drawn) the screen gave 28.42%.
With CNS(=O)(=O)C1CCN(S(=O)(=O)c2ccccc2)CC1 the screen gave 3.103%.
With O=C(CO)NC1CCN(Cc2cc(Cl)cc(Cl)c2)CC1 the screen gave -0.05815%.
With NCC(O)c1ccc(Cl)s1 (stereo not drawn) the screen gave 67.59%.
With COCC(=O)N1CCN(C(=O)c2ncncc2Br)CC1 the screen gave -6.324%.
With Nc1cc(-c2ccc(I)cc2)nn1CCO the screen gave -5.251%.
With CC1CN(CCCOc2ccc(C#N)cc2)CCN1 (stereo not drawn) the screen gave 64.76%.
With OCC1(O)CCCN(CCn2cc(Cl)cn2)CC1 (stereo not drawn) the screen gave -4.728%.
With COC(=O)CC1C(=O)NCCN1Cc1ccc(Br)o1 (stereo not drawn) the screen gave -22.7%.
With COCCCNC(=O)NC(=O)c1ccccc1 the screen gave 10.97%.
With CN1CCC(C(=O)NCc2ccc(C#N)cc2)CC1=O (stereo not drawn) the screen gave -1.247%.
With COCCn1ccnc1CN1C[C@H](N(C)C)C[C@H]1CO the screen gave 1.796%.
With NC(Cc1ccccn1)C(F)(F)F (stereo not drawn) the screen gave -5.804%.
With N#CCCNC(=O)CSc1ccccc1F the screen gave 4.559%.
With CC(C)CC(=O)NC1CCN(C(C)C)CC1 the screen gave 23.48%.
With CNC(=O)CSc1nnnn1-c1ccc(C(C)C)cc1 the screen gave 69.16%.
With COc1ccc(C)c(NC(=O)CNC(=O)C2CC2)c1 the screen gave 0.01176%.
With COC(C)C(=O)NCCN(C)C(C)C (stereo not drawn) the screen gave -2.653%.
With NC(=O)c1ccc(N2CCN(CCCO)CC2)cc1 the screen gave 4.175%.
With O=C(Cc1cccc(O)c1)N(CCO)CC1CC1 the screen gave -9.485%.
With COc1ccccc1CCC(=O)NCCC1CCOC1 (stereo not drawn) the screen gave 19.77%.
With Cc1ccc(OCC(=O)Nc2nnn(C)n2)cc1 the screen gave 83.28%.

Some entries from above, unchanged:

CN1CCC(C(=O)NCc2ccc(C#N)cc2)CC1=O (stereo not drawn) gave -1.247%.
OCC1(O)CCCN(CCn2cc(Cl)cn2)CC1 (stereo not drawn) gave -4.728%.
COC(C)C(=O)NCCN(C)C(C)C (stereo not drawn) gave -2.653%.

Data taken from ChEMBL document CHEMBL3988442, “University of Dundee, Small-Polar-MMV Screening Library” (2021).